Compound potency records, mixed from different reports. Data source: NIAID ChemDB in PubChem.

Shared fields: target-level tests; agent: HIV-1; target: Protease; read-out: Ki

Conditions beyond the fields shown may differ between rows. An empty or dashed field is not shown.

structure	strain	mutations	method	conditions	value
O=C(N[C@@H](Cc1ccccc1)[C@@H](O)C[C@H](Cc1ccccc1)NC(=O)[C@@H]1CN(c2cccc(C(F)(F)F)c2)C(=O)O1)OCc1cccnc1			FRET		0.04109 µM
CC(C)(O)c1cccc(CN2C(=O)N(Cc3cccc(C(C)(C)O)c3)[C@H](Cc3ccccc3)[C@H](O)[C@@H](O)[C@H]2Cc2ccccc2)c1	RF				0.000067 µM
CC(C)(C)OC(=O)N[C@@H](Cc1ccccc1)[C@H](O)C[C@H](Cc1ccccc1)C(=O)N[C@@H](CCC(=O)O)C(=O)N[C@@H](Cc1ccccc1)C(N)=O			absorbance		0.00022 µM
O=C1N(Cc2cccc(CO)c2)[C@H](Cc2ccccc2)[C@H](O)[C@@H](O)[C@@H](Cc2ccccc2)N1Cc1cccc(-c2ccn[nH]2)c1	RF		fluorescence		0.00016 µM
CC(C)(C)OC(=O)N[C@@H](COc1ccccc1)C[C@H](O)[C@H](COc1ccccc1)NC(=O)OC(C)(C)C			absorbance		0.052 µM
CNC(=O)CN1[C@H](COc2ccccc2)[C@H](O)[C@@H](O)[C@@H](COc2ccccc2)N(CC(=O)NC)S1(=O)=O		PR-I84V			83 µM
CCC(C)[C@H](NC(=O)[C@@H](C[C@H](O)[C@H](CC1CCCCC1)NC(=O)C(CC(N)=O)NC(=O)c1ccc2ccccc2n1)C(C)C)C(=O)O					>1 µM
CC(C)(C)NC(=O)[C@@H]1CCCN1C(=O)[C@@H](O)[C@H](Cc1ccccc1)NC(=O)[C@H](CC(N)=O)NC(=O)OCc1ccccc1	IIIB		HPLC		0.0575 µM
CC(C)(C)OC(=O)N[C@@H](Cc1ccccc1)[C@H](O)CN[C@@H](Cc1ccccc1)C(=O)N[C@@H](CCC(=O)O)C(=O)N[C@@H](Cc1ccccc1)C(N)=O			absorbance		0.0001 µM
CNC(=O)c1cccc(CN2[C@H](COc3ccccc3)[C@H](O)[C@@H](O)[C@@H](COc3ccccc3)N(Cc3cccc(C(=O)NC)c3)S2(=O)=O)c1		PR-V82A			0.39 µM
CC(C)[C@H](NC(=O)c1ccccn1)C(=O)N[C@@H](Cc1ccccc1)[C@H](O)[C@H](O)[C@H](Cc1ccccc1)NC(=O)[C@@H](NC(=O)c1ccccn1)C(C)C			substrate cleavage		0.0048 µM
COC(=O)N[C@H](C(=O)N[C@@H](Cc1ccccc1)[C@@H](O)CN(Cc1ccc(-c2ccccn2)cc1)NC(=O)[C@@H](NC(=O)OC)C(C)(C)C)C(C)(C)C		Q7K	substrate cleavage / FRET		0.000046 µM
CC(C)(C)OC(=O)N[C@@H](Cc1ccccc1)[C@@H](O)C[C@H](Cc1ccccc1)C(=O)N[C@@H](CCC(=O)O)C(=O)N[C@@H](Cc1ccccc1)C(N)=O			absorbance		0.00015 µM
O=C1N[C@H](Cc2ccccc2)[C@H](O)CN(Cc2ccccc2)[C@H]1Cc1ccccc1			HPLC		0.01 µM
CNC(=O)[C@@H](NC(=O)[C@H](Sc1ccccc1F)[C@H](O)[C@@H](O)[C@@H](Sc1ccccc1F)C(=O)N[C@H](C(=O)NC)C(C)C)C(C)C			fluorescence		0.0036 µM
CCCC[C@@H](CN[C@@H](CCCC)C(=O)N[C@@H](CCC(N)=O)C(=O)N[C@@H](CCCN=C(N)N)C(N)=O)NC(=O)[C@@H](NC(=O)[C@@H](NC(C)=O)[C@@H](C)O)[C@@H](C)CC			substrate cleavage		0.81 µM
O=C1N(Cc2cccc(C(=O)C(F)(F)F)c2)[C@H](Cc2ccccc2)[C@H](O)[C@@H](O)[C@@H](Cc2ccccc2)N1Cc1cccc(C(=O)C(F)(F)F)c1	RF				0.000037 µM
CC(C)(C)OC(=O)N[C@@H](Cc1ccccc1)[C@@H](O)C[C@@H](Cc1ccccc1)C(=O)N[C@@H](CCC(N)=O)C(=O)N[C@@H](Cc1ccccc1)C(N)=O			absorbance		0.00002 µM
CC(=O)N[C@@H](CO)C(=O)N[C@@H](CC(C)C)C(=O)N[C@@H](CC(N)=O)C(=O)N[C@@H](Cc1ccccc1)B(O)O		PR-M46I V82F I84V L90M	HPLC		150 µM
CC(C)[C@H](NC(=O)[C@@H](NC(=O)C1CCCCC1P(=O)(O)C(Cc1ccccc1)NC(=O)OCc1ccccc1)C(C)C)C(N)=O				pH 4.5	0.007 µM
CC(C)(C)OC(=O)N[C@H](CCN[C@@H](Cc1ccccc1)C(=O)N[C@@H](CCC(=O)O)C(=O)N[C@@H](Cc1ccccc1)C(N)=O)Cc1ccccc1			absorbance		0.00005 µM
CCCCCCCCCCCCCCCC(=O)N[C@@H](Cc1ccc(O)cc1)C(=O)N[C@@H](CCC(=O)O)C(=O)N[C@@H](CC(C)C)C(=O)O					0.011 µM
CC(C)(C)OC(=O)[C@@H]1CCCN1C(=O)[C@@H](O)[C@H](Cc1ccccc1)NC(=O)[C@H](CC(N)=O)NC(=O)c1ccc2ccccc2n1	IIIB		HPLC		0.036 µM
CC[C@H](C)[C@H](NC(=O)[C@@H](Cc1ccccc1)C[C@H](O)[C@H](Cc1ccccc1)NC(=O)OC(C)(C)C)C(=O)N[C@@H](Cc1ccccc1)C(N)=O			absorbance		0.0007 µM
CNC(=O)[C@@H](NC(=O)[C@H](OCc1ccccc1)[C@H](O)[C@@H](O)[C@@H](OCc1ccccc1)C(=O)N[C@H]1c2ccccc2C[C@H]1O)C(C)C		PR-I84V L90M			0.001 µM
COC(=O)N[C@H](C(=O)N[C@@H](Cc1ccccc1)[C@@H](O)CN(Cc1ccc(-c2ccccn2)cc1)NC(=O)[C@@H](NC(=O)OC)C(C)(C)C)C(C)(C)C	RF		substrate cleavage		0.00266 µM
Cn1cc(C[C@H]2NC(=O)N(CC(CCN3CCC(c4ccccc4)CC3)c3cccc(Cl)c3)C2=O)c2ccccc21					0.02 µM
O=C1N(Cc2cccc(Br)c2)[C@H]2[C@H](CS(=O)(=O)[C@H]2CCCCCO)N1Cc1cccc(Br)c1			HPLC		6.9 µM
CC(C)[C@H](NC(=O)[C@@H](NC(=O)C(Cc1ccccc1)CP(=O)(O)C(Cc1ccccc1)NC(=O)c1ccccc1)C(C)C)C(N)=O				pH 6.5	0.002 µM
COC(=O)CCCC[C@H]1[C@@H]2[C@H](CS1(=O)=O)N(Cc1cccc(Br)c1)C(=O)N2Cc1cccc(Br)c1					4.1 µM
C/C(=N\O)c1cccc(CN2[C@H](COc3ccccc3)[C@H](O)[C@@H](O)[C@@H](COc3ccccc3)N(Cc3cccc(/C(C)=N/O)c3)S2(=O)=O)c1		PR-V82A			0.68 µM
O=C1N(Cc2cccc(-c3ccn[nH]3)c2)[C@H](Cc2ccccc2)[C@H](O)[C@@H](O)[C@@H](Cc2ccccc2)N1Cc1cccc(-c2ccn[nH]2)c1	RF		fluorescence		0.000027 µM
CC(C)C[C@H](NC(=O)[C@@H](N)[C@@H](C)O)C(=O)N[C@@H](CC(N)=O)C(=O)N[C@@H](Cc1ccccc1)B1O[C@H](C2CCCCC2)[C@@H](C2CCCCC2)O1			HPLC		80 µM
CC(C)[C@H](NC(=O)OCc1ccccc1)C(=O)N[C@@H](Cc1ccccc1)[C@@H](O)[C@H](O)[C@H](Cc1ccccc1)NC(=O)[C@@H](NC(=O)OCc1ccccc1)C(C)C					0.001 µM
O=S1(=O)N(Cc2cccc(I)c2)[C@H](COc2ccccc2)[C@H](O)[C@@H](O)[C@@H](COc2ccccc2)N1Cc1cccc(I)c1					0.012 µM
CC(C)[C@H](NC(=O)[C@@H](NC(=O)C1CCCC1P(=O)(O)C(Cc1ccccc1)NC(=O)OCc1ccccc1)C(C)C)C(N)=O				pH 6.5	2.4 µM
O=C(Cc1ccc2c(c1)OCO2)N[C@@H](Cc1ccccc1)[C@@H](O)C[C@H](Cc1ccccc1)NC(=O)[C@@H]1CN(c2ccccc2)C(=O)O1		Q7K	substrate cleavage / FRET		0.657 µM
CC(C)(C)OC(=O)[C@@H]1CCCN1C(=O)[C@@H](O)[C@H](Cc1ccccc1)NC(=O)[C@H](CC(N)=O)NC(=O)c1cnc2ccccc2n1	IIIB		HPLC		0.045 µM
CC(C)[C@H](NC(=O)[C@H](Cc1cccc2ccccc12)CS(=O)(=O)C(C)(C)C)C(=O)N[C@@H](Cc1ccccc1)[C@@H](O)[C@H](O)[C@H](Cc1ccccc1)NC(=O)[C@@H](NC(=O)[C@H](Cc1cccc2ccccc12)CS(=O)(=O)C(C)(C)C)C(C)C					0.0003 µM
Nc1cccc(CN2C(=O)N(Cc3cccc(-c4ccn[nH]4)c3)[C@H](Cc3ccccc3)[C@H](O)[C@@H](O)[C@H]2Cc2ccccc2)c1	RF		fluorescence		0.000035 µM
CC(C)(C)OC(=O)N[C@@H](Cc1ccccc1)[C@@H](O)C[C@H](Cc1ccccc1)C(=O)N[C@@H](CCC(N)=O)C(=O)N[C@@H](Cc1ccccc1)C(N)=O			absorbance		0.0004 µM
O=C1[C@@H](Cc2ccccc2)N(Cc2ccccc2)C(=O)N1CC(CCN1CCC(c2ccccc2)CC1)c1cccc(Cl)c1					0.002 µM
O=C1N(Cc2cccc(-c3cn[nH]c3)c2)[C@H](Cc2ccccc2)[C@H](O)[C@@H](O)[C@@H](Cc2ccccc2)N1Cc1cccc(-c2cn[nH]c2)c1	RF		fluorescence		0.00062 µM
CCC(C)[C@H](NC(=O)CCCCCCCCCCCCCCC(=O)N[C@@H](CC(N)=O)C(=O)N[C@@H](Cc1ccccc1)C(=O)O)C(=O)N[C@@H](Cc1ccc2ccccc2c1)C(N)=O					0.127 µM
O=C1N(Cc2cccc(-c3nn[nH]n3)c2)[C@H](Cc2ccccc2)[C@H](O)[C@@H](O)[C@@H](Cc2ccccc2)N1Cc1cccc(-c2nn[nH]n2)c1	RF		fluorescence		0.0066 µM
CC(C)(C)OC(=O)N[C@@H](COc1ccccc1)[C@@H](O)[C@H](O)[C@H](Cc1ccccc1)NC(=O)OC(C)(C)C			absorbance		0.073 µM
CC(C)[C@H](NC(=O)[C@@H](NC(=O)C(Cc1ccccc1)CP(=O)(O)C(Cc1ccccc1)NC(=O)[C@@H](NC(=O)[C@@H](NC(=O)OC(C)(C)C)C(C)C)C(C)C)C(C)C)C(N)=O				pH 6.5	0.0004 µM
CC(C)(C)C(=O)c1cccc(CN2C(=O)N(Cc3cccc(C(=O)C(C)(C)C)c3)[C@H](Cc3ccccc3)[C@H](O)[C@@H](O)[C@H]2Cc2ccccc2)c1	RF				0.0036 µM

Again, the opening 6 rows:

structure | strain | mutations | method | conditions | value
O=C(N[C@@H](Cc1ccccc1)[C@@H](O)C[C@H](Cc1ccccc1)NC(=O)[C@@H]1CN(c2cccc(C(F)(F)F)c2)C(=O)O1)OCc1cccnc1 |  |  | FRET |  | 0.04109 µM
CC(C)(O)c1cccc(CN2C(=O)N(Cc3cccc(C(C)(C)O)c3)[C@H](Cc3ccccc3)[C@H](O)[C@@H](O)[C@H]2Cc2ccccc2)c1 | RF |  |  |  | 0.000067 µM
CC(C)(C)OC(=O)N[C@@H](Cc1ccccc1)[C@H](O)C[C@H](Cc1ccccc1)C(=O)N[C@@H](CCC(=O)O)C(=O)N[C@@H](Cc1ccccc1)C(N)=O |  |  | absorbance |  | 0.00022 µM
O=C1N(Cc2cccc(CO)c2)[C@H](Cc2ccccc2)[C@H](O)[C@@H](O)[C@@H](Cc2ccccc2)N1Cc1cccc(-c2ccn[nH]2)c1 | RF |  | fluorescence |  | 0.00016 µM
CC(C)(C)OC(=O)N[C@@H](COc1ccccc1)C[C@H](O)[C@H](COc1ccccc1)NC(=O)OC(C)(C)C |  |  | absorbance |  | 0.052 µM
CNC(=O)CN1[C@H](COc2ccccc2)[C@H](O)[C@@H](O)[C@@H](COc2ccccc2)N(CC(=O)NC)S1(=O)=O |  | PR-I84V |  |  | 83 µM